Test results from patent publication US20260104399A1, “A PROCESS FOR ASSESSING BIODEGRADABILITY OF COMPLEX ORGANIC MIXTURES” (ABOCA S.P.A. SOCIETÀ AGRICOLA, priority 2022, published 2026).

Legend:
[1] = tested on: microfauna of the inoculum (activated sludge and river water); assay: Semiquantitative UHPLC-qToF evaluation (Relative Ratio, percentage of reduction) of residual main components after RBT; parameters: species or system Aspidisca cicada, Zoothamnium, Rotiferi, Euglyphia; conditions: for parent compound still present at the end of the experiment (% of original concentration): Mixture A 1000 mg/L sample; for reduction percentage: T28 vs T0; for RR at T28 (Relative Ratio): after 28 days RBT; for RR at T0 (Relative Ratio, area counts of compound / internal standard) / RR at T0 (Relative Ratio): start of RBT
[2] = tested on: microfauna of the inoculum (activated sludge and river water); assay: Targeted UHPLC-qToF qualitative analysis of RBT samples of mixtures A and B; parameters: species or system Aspidisca cicada, Zoothamnium, Rotiferi, Euglyphia; conditions: Mixture A 1000 mg/L
[3] = tested on: microfauna of the OECD 301F ready biodegradability test; assay: Targeted suspect screening and semi-quantitative UHPLC-qToF analysis of OECD 301F samples of mixtures C and D; conditions: in Mixture D 75 mg/L
[4] = component in Mixture A at 50 mg/L
[5] = component in Mixture A at 100 mg/L
[6] = component in Mixture A at 1000 mg/L

SMILES | parent compound still present at the end of the experiment (% of original concentration) ([1]; 28 days) [%] | reduction percentage [1, 4] [% reduction] | RR at T28 (Relative Ratio) [1, 4] | RR at T0 (Relative Ratio, area counts of compound / internal standard) [1, 4] | reduction percentage [1, 5] [% reduction] | RR at T28 (Relative Ratio) [1, 5] | RR at T0 (Relative Ratio) [1, 5] | RR at T28 (Relative Ratio) [1, 6] | RR at T0 (Relative Ratio) [1, 6] | detection on the 28th day (suspect screening) [3] | also measured
CN(Cc1cc(Br)cc(Br)c1N)C1CCCCC1 [Bromhexine (3), Bromhexine, reference compound] | 12 | 94 | RR at T28 0.004 | RR at T0 0.064 | 88 | RR at T28 0.012 | RR at T0 0.102 | RR at T28 0.054 | RR at T0 0.432 | – | parent compound still present at the end of the experiment ([1]; Mixture A 50 mg/L sample, 28 days): 6%; parent compound still present at the end of the experiment ([1]; Mixture A 100 mg/L sample, 28 days): 12%; reduction percentage ([1]; pure Bromhexine at 0.7 mg/L): 46%; reduction percentage ([1]; pure Bromhexine at 0.7 mg/L, listed as Bromhexins): 46% reduction; RR at T28 (Relative Ratio) ([1]; pure Bromhexine at 0.7 mg/L): RR at T28 9.542; RR at T0 (Relative Ratio) ([1]; pure Bromhexine at 0.7 mg/L): RR at T0 17.826; presence after 28 days under the RBT conditions [2]: still present after 28 days
OC[C@@H](O)C(O[C@H]1O[C@H](CO)[C@@H](O)[C@H](O)[C@H]1O)[C@H](O)[C@@H](O)CO (stereo partly drawn) [Maltitol (2), maltitol] | 62 | 100 | RR at T28 0.000 | RR at T0 2.801 | 100 | RR at T28 0.000 | RR at T0 4.932 | RR at T28 4.344 | RR at T0 7.049 | – | degradation of the component (in words) ([1]; Mixture A, samples at 50 mg/L and 100 mg/L, 28 days): fully biodegraded; reduction percentage [1, 6]: 38% reduction
OC[C@@H]1O[C@](CO)(O[C@@H]2O[C@H](CO)[C@H](O)[C@H](O)[C@H]2O)[C@@H](O)[C@@H]1O [Sucrose (4), Sucrose] | – | – | – | – | – | – | – | – | – | no more detectable | –
O=c1cc(-c2ccc(O)cc2)oc2cc(O)cc(O)c12 [apigenin] | – | – | – | – | – | – | – | – | – | no more detectable | –
O=C1C[C@@H](c2ccc(O[C@@H]3O[C@H](CO)[C@@H](O)[C@H](O)[C@H]3O)cc2)Oc2cc(O)ccc21 [liquiritin] | – | – | – | – | – | – | – | – | – | no more detectable | –
